Assay results reported in article PMC12567398, “New Assay Systems to Characterize the Broad-Spectrum Antiherpesviral and Non-Herpesviral Activity of Cyclin-Dependent Kinase (CDK) 8 Inhibitors” (Pharmaceuticals, 2025).
Like-named read-outs stand apart in the source and are kept apart here.

Experiments:
MHV-68-Luc = MHV-68-Luc luciferase reporter assay; assay type: cell-based, murine herpesvirus 68
[1] = tested on: Epstein–Barr virus P3HR-1; test: EBV lytic assay in TPA-induced P3HR-1 cells, qPCR; assay type: cell-based
HHV-6A-GFP = test: HHV-6A plaque reduction assay in HFFs; settings: HFF
EHV-1-GFP = EHV-1-GFP antiviral assay, GFP fluorometry; assay type: cell-based, equine herpesvirus 1
EHV-1 = test: EHV-1-specific qPCR of virus release into culture medium; assay type: cell-based, equine herpesvirus 1
[2] = HFF, reference compounds, ratio CC50 / EC50
[3] = Vero, reference compounds, ratio CC50 / EC50

| SMILES | SI (MHV-68-Luc; MEF) | SI (HHV-6A-GFP) | SI (EHV-1-GFP; GFP / COS-7) | SI (MHV-68-Luc; Vero) | other results |
| --- | --- | --- | --- | --- | --- |
| Nc1nc2c(ncn2COCCO)c(=O)[nH]1 [ACV, aciclovir] | 4.5 |  |  |  |  |
| CC(C)(C)C(=O)OCOP(=O)(COCCn1cnc2c(N)ncnc21)OCOC(=O)C(C)(C)C [ADV, adefovir dipivoxil] |  |  |  |  | SI [1]: 54.7 |
| Nc1ncnc2c1ncn2CCOCP(=O)(O)O [AFV, adefovir] |  |  |  |  | SI ([1]; EBV, P3HR-1): > 7.7 |
| CCCCCCCCCCCCCCCCOCCCOP(=O)(O)CO[C@H](CO)Cn1ccc(N)nc1=O [BCV, brincidofovir] | > 100.0 | > 5,000.0 | 245.0 | > 1,000.0 | SI (EHV-1-GFP; [2]): 633.3; SI (EHV-1-GFP; [3]): 650.0; SI (MHV-68-Luc; COS-7): > 50.0 |
| CN(C)C(=O)Cn1cc(-c2ccc(-c3cncc4ccccc34)cc2)cn1 [BI-1347] | > 16,666.7 | > 500.0 | > 625.0 | > 200,000.0 | SI (EHV-1; qPCR / COS-7): > 16,667; SI (EHV-1; qPCR / HFF): > 2,500; SI (SARS-CoV-2 d6-YFP; SARS-CoV-2, Caco-2): > 4.4; SI (MHV-68-Luc; COS-7): > 1,000,000.0; SI (MHV-68-Luc; HFF): > 2,500.0; SI ([1]; EBV, P3HR-1): > 18.2 |
| Cn1ncc2cc(-c3cnc(N)c(Cl)c3N3CCC4(CCNC4=O)CC3)ccc21 [CCT-251921] | > 1,000.0 | > 2,500.0 | > 500.0 | > 50,000.0 | SI (EHV-1; qPCR / COS-7): > 166.7; SI (EHV-1; qPCR / HFF): > 62.5; SI (SARS-CoV-2 d6-YFP; SARS-CoV-2, Caco-2): > 1.6; SI (MHV-68-Luc; COS-7): > 20,000.0; SI (MHV-68-Luc; HFF): > 55.6; SI [1]: > 40.0 |
| Nc1ccn(C[C@@H](CO)OCP(=O)(O)O)c(=O)n1 [CDV, cidofovir] |  | > 250.0 | 26.8 |  | SI (EHV-1-GFP; [3]): > 22.2 |
| O=c1nc(NO)ccn1[C@@H]1O[C@H](CO)[C@@H](O)[C@H]1O [EIDD-1931] |  |  |  |  | SI (SARS-CoV-2 d6-YFP): > 24.4 |
| O=C(O)P(=O)(O)O [FOS, foscarnet] | 24.1 |  |  | > 27.5 |  |
| Nc1nc(O)c2ncn(COC(CO)CO)c2n1 [GCV, ganciclovir] |  | > 40.0 | > 500.0 | > 111.1 | SI (EHV-1-GFP; [2]): > 38.5; SI (EHV-1-GFP; [3]): > 2,500 |
| CC(C)Nc1nc2cc(Cl)c(Cl)cc2n1[C@H]1O[C@@H](CO)[C@H](O)[C@@H]1O [MBV, maribavir] | 3.0 |  |  | > 11.3 |  |
| CC(C)OC(=O)[C@H](C)N[P@](=O)(CO[C@H](C)Cn1cnc2c(N)ncnc21)Oc1ccccc1 [TAF, tenofovir alafenamide] |  |  |  |  | SI [1]: > 55.6 |
